Key:
[1] = system: four MDR protease variants; details: four clinical MDR isolates, enzyme inhibition assays, relative to NL4-3 (WT)
Text: HIV protease Forster Resonance Energy Transfer (FRET) substrate I used in the IC50 determination and substrate interference was purchased from AnaSpec, Inc. (Fremont, CA, USA). The US FDA-approved HIV-1 protease inhibitors were kindly provided by the NIH AIDS Research and Reference Reagent Program (www.aidsreagent.org). The CA/p2 pseudopeptide with a reduced scissile peptide bond [-ψ(CH2NH)-] was synthesized in the Department of Chemistry, Wayne State University. The nine substrate hepta-peptides were purchase from SynBioSci Corporation, Livermore, CA, USA. […] The IC50 determination was described previously. […] The protease concentration was adjusted to a substrate cleavage velocity of 5 Relative Fluorescence Units (RFU)/min in the absence of regular substrate. […] Upon the addition of the HIV-1 protease, the fluorescent signal emitted through the cleavage of the FRET substrate was recorded using SpectraMax M5 (Molecular Devices, Sunnyvale, CA, USA) at an excitation wavelength of 340 nm and an emission wavelength of 490 nm. The average velocity of FRET substrate cleavage in RFU/min was calculated based on fluorescent signal at 30 time point over 30 min. In the control experiment, the average velocity of FRET substrate cleavage was determined in the absence of regular substrates. […]

HIV-1 protease MDR 3761 = biological target: T1, HIV-1 protease MDR 3761 (Human immunodeficiency virus type 1 group M subtype B, UniProt P12497, A559I/G561T/I503V/I552V/I572V/I581L/K508I/L498I/L507I/L551P/L578M/M534I/P567S/Q495K/T500A); experiment: HIV-1 protease inhibition (FRET substrate cleavage), MDR 3761; format: biochemical; details: FRET substrate I, 0.1 M sodium acetate, 1.0 M NaCl, 1.0 mM EDTA, 1.0 mM DTT, 10% DMSO, 1 mg/mL BSA, pH 4.7, fluorescence 340/490 nm, read-out: IC50 of HIV-1 protease inhibitors
T1 construct: made in house; host or cells: E. coli (pET21b)

HIV-1 protease MDR 807 = biological target: T2, HIV-1 protease MDR 807 (Human immunodeficiency virus type 1 group M subtype B, UniProt P12497, A559V/G536V/I542T/I550V/I581L/L498I/L551Q/M534I/Q495K/Q549N/R529K/T562A/V565I/V570A); experiment: HIV-1 protease inhibition (FRET substrate cleavage), MDR 807; format: biochemical; details: FRET substrate I, 0.1 M sodium acetate, 1.0 M NaCl, 1.0 mM EDTA, 1.0 mM DTT, 10% DMSO, 1 mg/mL BSA, pH 4.7, fluorescence 340/490 nm, read-out: IC50 of HIV-1 protease inhibitors
T2 construct: made in house; host or cells: E. coli (pET21b)

HIV-1 protease NL4-3 = biological target: T3, HIV-1 protease NL4-3 (Human immunodeficiency virus type 1 group M subtype B, UniProt P12497, Q495K); experiment: HIV-1 protease inhibition (FRET substrate cleavage), NL4-3 (WT); format: biochemical; details: FRET substrate I, 0.1 M sodium acetate, 1.0 M NaCl, 1.0 mM EDTA, 1.0 mM DTT, 10% DMSO, 1 mg/mL BSA, pH 4.7, fluorescence 340/490 nm, read-out: IC50 of HIV-1 protease inhibitors
T3 construct: made in house; host or cells: E. coli (pET21b)

HIV-1 protease MDR 1385 = biological target: T4, HIV-1 protease MDR 1385 (Human immunodeficiency virus type 1 group M subtype B, UniProt P12497, A559V/I581L/L498F/L551P/L577M/L578M/M524I/M534I/N525D/Q495K/R545K/V570T); experiment: HIV-1 protease inhibition (FRET substrate cleavage), MDR 1385; format: biochemical; details: FRET substrate I, 0.1 M sodium acetate, 1.0 M NaCl, 1.0 mM EDTA, 1.0 mM DTT, 10% DMSO, 1 mg/mL BSA, pH 4.7, fluorescence 340/490 nm, read-out: IC50 of HIV-1 protease inhibitors
T4 construct: made in house; host or cells: E. coli (pET21b)

HIV-1 protease MDR 769 = biological target: T5, HIV-1 protease MDR 769 (Human immunodeficiency virus type 1 group M subtype B, UniProt P12497, A559V/I542V/I550V/I572V/L498I/L551P/L578M/M524V/M534L/Q495K/V570A); experiment: HIV-1 protease inhibition (FRET substrate cleavage), MDR 769; format: biochemical; details: FRET substrate I, 0.1 M sodium acetate, 1.0 M NaCl, 1.0 mM EDTA, 1.0 mM DTT, 10% DMSO, 1 mg/mL BSA, pH 4.7, fluorescence 340/490 nm, read-out: IC50 of HIV-1 protease inhibitors
T5 construct: made in house; host or cells: E. coli (pET21b)

Row | Structure (SMILES) | resistance of MDR variants to inhibitors (in words) [1] | IC50 (HIV-1 protease MDR 3761) [nM] | IC50 (HIV-1 protease MDR 807) [nM] | IC50 (HIV-1 protease NL4-3) [nM] | IC50 (HIV-1 protease MDR 1385) [nM] | IC50 (HIV-1 protease MDR 769) [nM]
1 | CCC[C@@]1(CCc2ccccc2)CC(O)=C([C@H](CC)c2cccc(NS(=O)(=O)c3ccc(C(F)(F)F)cn3)c2)C(=O)O1 [TPV, tipranavir] | lower relative resistance | – | – | – | – | –
2 | Cc1cccc(C)c1OCC(=O)N[C@@H](Cc1ccccc1)[C@@H](O)C[C@H](Cc1ccccc1)NC(=O)[C@H](C(C)C)N1CCCNC1=O [LPV, lopinavir] | – | 0.39 | 1.2 | 0.28 | 2.3 | 0.5
